Measured data: PubChem BioAssay AID1259414 (Drosophila RNAi Screening Center, 2018)

Screen: 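Fly genes that alter Wolbachia amount inside host cells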 (primary screen)
Cell system: Drosophila JW18 cells infected with Wolbachia
Reagent: long dsRNA against Drosophila genes, 0.25 µg dsRNA per well of a 384-well plate
Timing: 5 days
Conditions: cells persistently infected with Wolbachia before knock-down; no added drug
Read-out: 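Automated imaging of bacterial rRNA staining divided by host cell count, reported as plate-normalised robust z-score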
Reading the numbers: Wolbachia per cell robust z: higher = more Wolbachia per host cell than the plate typical
Hit rule: 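Active if absolute robust z reaches 1.5 in two or more of three replicates, leaving out multi- or no-target dsRNAs, genes unexpressed in JW18 and A1 wells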
In all, the deposit lists about 24,000 reagents; this is a random part of those that have a named target and a result. In the full data, about 1,210 (5%) were called active. 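Inactive calls also include excluded dsRNAs with several or no targets, genes unexpressed in JW18, and well A1, regardless of score.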 A plus sign joins genes that one reagent is predicted to hit.

| gene knocked down | dsRNA | Wolbachia per cell robust z, rep 1 | Wolbachia per cell robust z, rep 2 | Wolbachia per cell robust z, rep 3 | Outcome |
| --- | --- | --- | --- | --- | --- |
| svr (GeneID 30998) | DRSC17293 | -0.128 | 1.02 | 0.848 | inactive |
| svr (GeneID 30998) | DRSC18841 | 1.38 | -0.0523 | 1.65 | inactive |
| svr (GeneID 30998) | DRSC27397 | -0.243 | 0.107 | -0.731 | inactive |
| svr (GeneID 30998) | DRSC38955 | 1.31 | 0.135 | -0.605 | inactive |
| CG13991 (GeneID 33868) | DRSC02323 | -0.0225 | -0.198 | 0.164 | inactive |
| CG30503 + kappaB-Ras | DRSC25537 | -0.745 | 0.18 | -1.05 | inactive |
| Gr9a (GeneID 318158) | DRSC22506 | -0.814 | 0.502 | 0.932 | inactive |
| su(sable) (GeneID 31012) | DRSC18839 | 1.15 | -0.92 | 0.784 | inactive |
| P5cr (GeneID 42284) | DRSC16782 | -0.3 | 0.688 | -4.87 | inactive |
| CR33319 (GeneID 3772025) | DRSC01826 | -0.142 | 0.381 | 0.573 | inactive |
| Skp2 (GeneID 40548) | DRSC12329 | 0.571 | 0.578 | -0.968 | inactive |
| Skp2 (GeneID 40548) | DRSC28203 | 0.494 | 0.921 | 1.56 | inactive |
| GV1 (GeneID 38238) | DRSC08228 | -0.0366 | -2.72 | 0.154 | inactive |
| GV1 (GeneID 38238) | DRSC25953 | 0.188 | 0.804 | 0.314 | inactive |
| CG2656 (GeneID 40857) | DRSC12584 | -0.891 | 0.545 | -0.56 | inactive |
| HP1D3csd (GeneID 32906) | DRSC19548 | -0.1 | -3.05 | -3.24 | active |
| CG31091 (GeneID 318591) | DRSC15933 | -0.417 | 0.783 | -3.57 | inactive |
| CG6845 (GeneID 38019) | DRSC08576 | -0.25 | 1.17 | -0.997 | inactive |
| CG6845 (GeneID 38019) | DRSC26319 | 0.057 | -0.0051 | 1.36 | inactive |
| HisCl1 (GeneID 41426) | DRSC14945 | 1.14 | -5.75 | -0.252 | inactive |
| CG32152 (GeneID 317885) | DRSC22906 | -0.68 | -0.659 | -1.36 | inactive |
| Pabp2 (GeneID 35788) | DRSC07501 | 0.599 | 1.3 | 0.607 | inactive |
| Nlg1 (GeneID 40913) | DRSC12485 | -1.19 | -2.62 | -1.52 | inactive |
| Nlg1 (GeneID 40913) | DRSC12532 | -0.542 | -8.6 | 0.373 | inactive |
| Nlg1 (GeneID 40913) | DRSC12533 | 0.256 | -2.73 | -0.537 | inactive |
| Nlg1 (GeneID 40913) | DRSC12539 | 0.532 | -0.173 | 0.715 | inactive |
| Gr58a (GeneID 117344) | DRSC03910 | -0.186 | 0.989 | 0.419 | inactive |
| Trhn (GeneID 38121) | DRSC08621 | -2.14 | -0.784 | -2.3 | active |
| Ten-m (GeneID 40464) | DRSC11664 | -0.568 | -0.493 | 0.884 | inactive |
| Ten-m (GeneID 40464) | DRSC11882 | 0.52 | 0.671 | 0.895 | inactive |
| nmd (GeneID 44021) | DRSC02856 | -1.11 | -0.22 | -0.889 | inactive |
| nmd (GeneID 44021) | DRSC27985 | -8.36 | 0.287 | 1.09 | inactive |
| CG1737 (GeneID 32077) | DRSC19771 | 0.864 | 0.938 | -0.313 | inactive |
| CG1737 (GeneID 32077) | DRSC25132 | 0.13 | 1.04 | 2.83 | inactive |
| CG42471 (GeneID 8674020) | DRSC40648 | 0.626 | 0.666 | 1.15 | inactive |
| PolG1 (GeneID 34792) | DRSC03621 | 0.022 | 0.543 | 0.906 | inactive |
| PolG1 (GeneID 34792) | DRSC29392 | 0.404 | 0.991 | 0.964 | inactive |
| PolG1 (GeneID 34792) | DRSC40792 | 0.0645 | -0.0958 | 0.384 | inactive |
| Ir48b (GeneID 36254) | DRSC06320 | 0.0212 | -2.18 | -3.04 | inactive |
| CG11686 (GeneID 50024) | DRSC14350 | -0.341 | 0.383 | -0.0125 | inactive |
| CG32625 (GeneID 318128) | DRSC18994 | 1.28 | 0.851 | -0.853 | inactive |
| CG32625 (GeneID 318128) | DRSC28080 | -0.0535 | -0.699 | 1.05 | inactive |
| Madm (GeneID 40710) | DRSC12129 | 0.0163 | -1.73 | -0.393 | inactive |
| Madm (GeneID 40710) | DRSC25999 | -0.0384 | 0.0382 | -0.536 | inactive |
| CG14561 (GeneID 40447) | DRSC11722 | 0.133 | -0.797 | 0.223 | inactive |
| Elo68alpha (GeneID 317841) | DRSC22725 | 0.264 | 0.901 | -0.703 | inactive |
| CG34012 (GeneID 3885632) | DRSC38846 | -1.4 | -0.791 | -1.67 | inactive |
| Optix (GeneID 44108) | DRSC05078 | 0.8 | -0.153 | 0.196 | inactive |
| Optix (GeneID 44108) | DRSC07484 | -0.127 | -0.243 | -0.568 | inactive |
| Optix (GeneID 44108) | DRSC21963 | 0.738 | 0.295 | 0.373 | inactive |
| Optix (GeneID 44108) | DRSC29089 | 0.911 | 0.198 | 0.437 | inactive |
| CG10140 (GeneID 39511) | DRSC09704 | 0.451 | 1.04 | 1.29 | inactive |
| CG10140 (GeneID 39511) | DRSC26220 | 0.161 | 0.726 | 0.952 | inactive |
| arx (GeneID 40061) | DRSC10386 | 0.711 | -5.95 | 0.14 | inactive |
| Fbw5 (GeneID 33854) | DRSC03146 | 0.0371 | -0.679 | -0.0116 | inactive |
| Fbw5 (GeneID 33854) | DRSC29431 | -1.09 | -4.34 | 0.775 | inactive |
| CG13843 (GeneID 42668) | DRSC14693 | 0.439 | -1.52 | -0.0654 | inactive |
| CG17198 (GeneID 43110) | DRSC41319 | -1.3 | 0.868 | 0.753 | inactive |
| mRpS33 (GeneID 41991) | DRSC14239 | 0.663 | -0.66 | -0.593 | inactive |
| CG9386 (GeneID 41148) | DRSC16485 | 0.534 | -7.28 | -0.0242 | inactive |
| VhaAC45 (GeneID 35944) | DRSC07058 | 0.539 | 0.828 | 1.85 | inactive |
| CG46441 (GeneID 42423) | DRSC15561 | 0.419 | 0.792 | -0.228 | inactive |
| CG46441 (GeneID 42423) | DRSC24659 | 1.15 | 0.557 | -0.261 | inactive |
| Rheb (GeneID 117332) | DRSC12148 | -1.11 | -5.65 | 1.2 | inactive |
| CG42302 (GeneID 7354435) | DRSC40640 | 0.748 | 1.39 | 0.516 | inactive |
| Sur-8 (GeneID 42093) | DRSC15794 | -0.12 | 1.01 | 0.274 | inactive |
| Sgf29 (GeneID 37429) | DRSC04076 | 0.427 | 0.665 | 0.287 | inactive |
| HINT1 (GeneID 33471) | DRSC26502 | -2.37 | -1.59 | -1.32 | active |

Part of the list above, reduced to “Wolbachia per cell robust z, rep 2”:
Optix (GeneID 44108) [DRSC05078]	-0.153
Optix (GeneID 44108) [DRSC07484]	-0.243
Optix (GeneID 44108) [DRSC21963]	0.295
Optix (GeneID 44108) [DRSC29089]	0.198
CG10140 (GeneID 39511) [DRSC09704]	1.04
CG10140 (GeneID 39511) [DRSC26220]	0.726
arx (GeneID 40061) [DRSC10386]	-5.95
Fbw5 (GeneID 33854) [DRSC03146]	-0.679
